Measured values from several laboratories, pooled; numbers as filed in NIAID ChemDB.

All rows: whole-cell or culture tests; organism: Human cytomegalovirus; endpoint: EC50

Conditions beyond the fields shown may differ between rows.

{"compound": "Cc1nc(N2CCC2)nc(-n2ccnc2)c1[N+](=O)[O-]", "result": "0.19 µM"}
{"compound": "Cc1cc(C)cc(Cn2c(=O)ccn(Cc3ccc(C(C)(C)C)cc3)c2=O)c1", "strain or isolate": "AD169", "result": ">130 µM"}
{"compound": "CC1(C)OCC2(CO[C@H](n3ccc(=O)[nH]c3=O)C2)O1", "cells": "HFF", "strain or isolate": "AD169", "result": ">100 µM"}
{"compound": "Nc1ncnc2c1ncn2[C@@H]1C[C@H](NC=O)[C@@H](O)[C@H]1O", "cells": "HFF", "result": ">100 µg/mL"}
{"compound": "CCC1CCCCN1c1nc(C)c([N+](=O)[O-])c(-n2ccnc2)n1", "result": "0.22 µM"}
{"compound": "CNc1ncnc2c1ncn2[C@H]1S[C@@H](CO)C[C@@H]1N=[N+]=[N-]", "result": "<100 µg/mL"}
{"compound": "Cc1ccn2c(C(SCCc3ccccc3)SCCc3ccccc3)cnc2c1", "cells": "HEL", "strain or isolate": "DAVIS", "result": "3.1 µM"}
{"compound": "OC[C@H]1CC(n2cnc3c(NC4CC4)ncnc32)C[C@@H]1CO", "cells": "HEL", "strain or isolate": "AD169", "result": ">100 µg/mL"}
{"compound": "[N-]=[N+]=N[C@H]1C[C@H](CO)S[C@H]1n1cnc2c(Cl)ncnc21", "result": "<100 µg/mL"}
{"compound": "COC(=O)[C@H](C)NP(=O)(OC[C@@H]1C[C@]12C[C@@H]2n1cnc2c(N)ncnc21)Oc1ccccc1", "cells": "HFF", "result": "0.38 µM"}
{"compound": "Cc1nc(N[C@@H]2c3ccccc3C[C@@H]2O)nc(-n2ccnc2)c1[N+](=O)[O-]", "result": "0.175 µM"}
{"compound": "Cc1cccn2c(C3SCCS3)cnc12", "cells": "HEL", "strain or isolate": "DAVIS", "result": "16 µM"}
{"compound": "Nc1nc(N)c2ncn(C=C3CC3CO)c2n1", "cells": "HFF", "strain or isolate": "TOWNE", "result": "24 µM"}
{"compound": "Cc1cccc(Cn2c(=O)ccn(CC#N)c2=O)c1", "strain or isolate": "AD169", "result": ">196 µM"}
{"compound": "Nc1ncnc2c1c(Cl)cn2COCCO", "strain or isolate": "TOWNE", "result": "4.3 µM"}
{"compound": "Nc1nc2c(ncn2C=C2CC2CO)c(=O)[nH]1", "cells": "HFF", "strain or isolate": "AD169", "result": "1.2 µM"}
{"compound": "Cc1ccc(S(=O)(=O)N2CCN(c3cc(=O)n(Cc4cc(C)cc(C)c4)c(=O)n3CC#N)CC2)cc1", "strain or isolate": "AD169", "result": ">99 µM"}
{"compound": "Cc1ccn2c(C3OCCO3)cnc2c1", "cells": "HEL", "strain or isolate": "DAVIS", "result": ">116 µM"}
{"compound": "CC1(C)OCC(CO)(CC(O)CO)O1", "cells": "HFF", "strain or isolate": "AD169", "result": ">100 µM"}
{"compound": "[N-]=[N+]=N[C@H]1C[C@H](CO)SC1n1cnc2c(N)ncnc21", "result": "<100 µg/mL"}
{"compound": "Nc1nc2c(ncn2[C@H]2C=C[C@@H](CO)[C@H](O)C2)c(=O)[nH]1", "strain or isolate": "LY9990", "result": "0.79 µg/mL"}
{"compound": "CC(C)Nc1ncnc2c1ncn2C1C[C@H](CO)[C@@H](CO)C1", "cells": "HEL", "strain or isolate": "AD169", "result": ">100 µg/mL"}
{"compound": "CC1(C)OCC2(CO[C@@H](n3ccc(=O)[nH]c3=O)C2)O1", "cells": "HFF", "strain or isolate": "AD169", "result": ">100 µM"}
{"compound": "Cc1cc(C)cc(Cn2c(=O)ccn(Cc3cccs3)c2=O)c1", "strain or isolate": "AD169", "result": "15 µM"}
{"compound": "[N-]=[N+]=N[C@H]1C[C@@H](CO)S[C@@H]1n1cnc2c(N)ncnc21", "result": ">100 µg/mL"}
{"compound": "COCC(C)Nc1nc(C)c([N+](=O)[O-])c(-n2ccnc2)n1", "result": "0.35 µM"}
{"compound": "Nc1nc(NC2CC2)c2ncn(C=C3CC3CO)c2n1", "cells": "HFF", "strain or isolate": "AD169", "result": "2.4 µM"}
{"compound": "O=C(Nc1ccn([C@@H]2CC(O)(CO)CO2)c(=O)n1)c1ccccc1", "cells": "HFF", "strain or isolate": "AD169", "result": ">100 µM"}
{"compound": "Cc1cc(C)cc(Cn2c(=O)ccn(CC(F)(F)F)c2=O)c1", "strain or isolate": "AD169", "result": ">640 µM"}
{"compound": "CCc1nccn1-c1nc(NC2CCc3c(F)cccc32)nc(C)c1[N+](=O)[O-]", "result": "0.25 µM"}
{"compound": "Cc1ccn2c(C3OCCS3)cnc2c1", "cells": "HEL", "strain or isolate": "AD169", "result": ">106 µM"}
{"compound": "O=c1[nH]cnc2c1ncn2C1C[C@H](CO)[C@@H](CO)C1", "cells": "HEL", "strain or isolate": "AD169", "result": ">100 µg/mL"}
{"compound": "[N-]=[N+]=N[C@H]1C[C@H](CO)S[C@@H]1n1cnc2c(Cl)ncnc21", "result": "<100 µg/mL"}
{"compound": "CC(C)(C)[Si](OC[C@H]1C[C@@H](Cn2cnc3c(Cl)nc(N)nc32)c2cn(Cc3ccccc3)nc21)(c1ccccc1)c1ccccc1", "cells": "HEL", "strain or isolate": "DAVIS", "result": "0.39 µM"}
{"compound": "O=c1ccn([C@@H]2O[C@H](/C=C/C=C(Br)Br)[C@@H](O)[C@H]2O)c(=O)[nH]1", "cells": "HEL", "strain or isolate": "AD169", "result": ">120 µM"}
{"compound": "CC(=O)OC1CC2(CO1)COC(C)(C)O2", "cells": "HFF", "strain or isolate": "AD169", "result": ">100 µM"}
{"compound": "Cc1cn([C@H]2S[C@H](CO)C[C@H]2N=[N+]=[N-])c(=O)[nH]c1=O", "result": "<100 µg/mL"}
{"compound": "COC(=O)[C@H](C)NP(=O)(OC[C@H]1C/C1=C/n1cnc2c(OC)nc(N)nc21)Oc1ccccc1", "cells": "HFF", "strain or isolate": "TOWNE", "result": "0.16 µM"}
{"compound": "Cc1cn([C@@H]2S[C@@H](CO)C[C@@H]2N=[N+]=[N-])c(=O)[nH]c1=O", "result": "<100 µg/mL"}
{"compound": "CCOCn1ccc(=S)n(Cc2cc(C)cc(C)c2)c1=O", "strain or isolate": "AD169", "result": "55 µM"}
{"compound": "C=C[C@@](C)(CO)CCn1cnc2c(N)ncnc21", "result": ">100 µg/mL"}

For reference, 3 entries again:

Nc1nc(N)c2ncn(C=C3CC3CO)c2n1 ; cells: HFF ; strain or isolate: TOWNE ; result: 24 µM
CC(C)(C)[Si](OC[C@H]1C[C@@H](Cn2cnc3c(Cl)nc(N)nc32)c2cn(Cc3ccccc3)nc21)(c1ccccc1)c1ccccc1 ; cells: HEL ; strain or isolate: DAVIS ; result: 0.39 µM
COC(=O)[C@H](C)NP(=O)(OC[C@H]1C/C1=C/n1cnc2c(OC)nc(N)nc21)Oc1ccccc1 ; cells: HFF ; strain or isolate: TOWNE ; result: 0.16 µM

ECn is the concentration giving n% inhibition of infection, replication or growth.